Our source for the IC50 values is paper PMC7179183, “Design of Biphenyl-Substituted Diarylpyrimidines with a Cyanomethyl Linker as HIV-1 NNRTIs via a Molecular Hybridization Strategy” (Molecules, 2020).

For this assay, the target named is WT HIV-1 RT (Human immunodeficiency virus type 1 group M subtype B, UniProt P03366). Description: Enzymatic assay against WT HIV-1 RT.

As a reminder, the IC50 is the concentration that gives 50% inhibition. High values mean weaker potency, low ones greater potency. Take `Cc1cc(C#N)cc(C)c1Oc1nc(Nc2ccc(C#N)cc2)nc(N)c1Br` [ETR, etravirine, reference compound]: inhibition was half-maximal at 9 ± 3 nM (IC50).
